A mixed list of measured activities; the numbers were collected in NIAID ChemDB.

Common to all: growth or infection tests; agent: Cryptococcus neoformans

Neighbouring rows are from separate reports. MIC50, MIC90 and the like: level of inhibition, or share of isolates inhibited. An empty or dashed field is not shown.

compound	read by	read-out	strain	result
Cc1nc(NCCCCNc2ccnc3cc(Cl)ccc23)nc(-c2ccccc2)c1C(=O)OC(C)C	-	MIC99	27JF	4 µg/mL
COc1ccc(/C=C2\CSc3ccc(Cl)cc3C2=O)cc1	-	MIC	Farwania	6 µg/mL
CCOC(=O)c1cnc(NCCCCNc2ccnc3cc(Cl)ccc23)nc1C	-	MIC99	C-3-1	2 µg/mL
O=C1/C(=C/c2ccc(O)cc2)COc2ccccc21	-	MIC	93/V	6 µg/mL
Oc1ccccc1N=Cc1ccccc1	-	MIC99	ATCC 28957	8 µg/mL
CC(C(O)(Cn1cncn1)c1ccc(F)cc1F)S(C)(=O)=O	-	MIC	R717 (AZOLE-R)	20 µM
C[C@@H](n1cnc2cc(Cl)ccc2c1=O)[C@](O)(Cn1cncn1)c1ccc(F)cc1F	-	MFC	Isolate 109.97	1.25 µg/mL
COc1ccc(/C=C2\CSc3ccccc3C2=O)cc1OC	-	MIC	93/V	100 µg/mL
C[C@@H](c1ncncc1F)[C@](O)(Cn1cncn1)c1ccc(F)cc1F	broth dilution	MIC	ATCC 32264	<0.015 µg/mL
C[C@H]1[C@H](O)[C@@H](C)/C=C/C=C/C=C/C=C/C=C/C=C/C=C/[C@H](O[C@@H]2O[C@H](C)[C@@H](O)[C@H](N)[C@@H]2O)C[C@@H]2O[C@](O)(C[C@@H](O)C[C@@H](O)CC[C@H](O)[C@@H](O)C[C@@H](O)CC(=O)O[C@H]1C)C[C@H](O)[C@H]2C(=O)O	-	MFC99	A28201	0.5 µg/mL
COc1ccc(/C=C2\COc3ccc(OC)cc3C2=O)cc1	-	MIC	Farwania	6 µg/mL
Cn1nc(Cc2ccc(Cl)cc2)c2ccccc2c1=O	broth dilution	MIC50	Clinical isolate (IM 972751)	31.3 µg/mL
Oc1ccccc1N=Cc1cccc(O)c1O	-	MIC99	96806	4 µg/mL
CN[C@H]1CC[C@@H](c2ccc(Cl)c(Cl)c2)c2ccccc21	broth dilution	MIC90	92BC1-52	3 µg/mL
Oc1ccccc1N=Cc1ccc(F)cc1	-	MIC99	C-3-1	4 µg/mL
O=C1/C(=C/c2ccc3c(c2)OCO3)CCc2ccccc21	-	MIC	25	50 µg/mL
O=[N+]([O-])c1ccc(C=Nc2ccccc2O)cc1	-	MIC99	ATCC 28957	5.7 µg/mL
COc1ccccc1/C=C1\COc2ccccc2C1=O	-	MIC	25	25 µg/mL

2 of the rows above, restated:

O=[N+]([O-])c1ccc(C=Nc2ccccc2O)cc1 ; read-out: MIC99 ; strain: ATCC 28957 ; result: 5.7 µg/mL
C[C@@H](n1cnc2cc(Cl)ccc2c1=O)[C@](O)(Cn1cncn1)c1ccc(F)cc1F ; read-out: MFC ; strain: Isolate 109.97 ; result: 1.25 µg/mL